Human monoclonal antibodies against the spike receptor-binding domain (heavy:light variable regions). IC50 against pseudoviruses bearing the spike of naturally observed variants; lower = stronger; >10 µg/ml means not reached at the top dose. No active / inactive call. The stated detection limit is 0.0005 µg/ml; values near or below 0.001 µg/ml lie at the floor of the assay.
B1: BD55-829 (protein)
chain 1: QLQLQESGPGLLKPSETLSLICTVSGDSISSRCDYWGWIRQAPGKGLEWIGSIYYSGATYYTPSLKSRVTISVDTSTNQFSLRLNSVTAADTAVYYCAREKGHCSSWGGVYFDYWGQGALVTVSS
chain 2: QSVLTQPPSVSGAPGQRVTISCIGSSSIGAGYDVHWYQQLPGIPPKLLIYGNNNRPSGVPDRFSGSKSGTSASLAITGRQAEDEADYFCQSYDTSLTARVFGGGTKLTVL
B2: BD55-846 (protein)
chain 1: QVQLVESGGGLVKPGGSLRLSCAASGFTFRDYYMSWIRQAPGKGLEWVSYISSSGSTIYYADSVKGRFTISRDNGKNSLYLEMNSLRAEDTAVYYCARSFESGGDCYSDYWGQGTLVTVSS
chain 2: SYELTQPPSVSVSPGQTARITCSGDALPKQYAYWYQQKPGQAPVLVIYKDSERPSGIPERFSGSSSGTTVTLTISGVQAEDEADYYCQSADSSGVVFGGGTKLTVL
B3: BD55-853 (protein)
chain 1: QVQLQESGPGLVKPSETLSLTCTVSGGSINYYYWSWIRQPPGKGLEWIGYIYYSGSTNYNPSLKSRVTISVDTSKDQFSLKLSSVTAADTAVYYCASYGGHNYNWFDPWGQGTLVTVSS
chain 2: QSVLTQPPSVSAAPGQKVTISCSGSSSNIENNFVSWYQQLPGTAPKLLIYDNNKRPSGIPDRFSGSKSGTSATLGITGLQTGDEADYYCGTWDSSLSAVVFGGGTKLTVL
B4: BD55-859 (protein)
chain 1: QVQLQESGPGLVKPSGTLSLTCAVSGDSITSTNWWSWLRQPPGKGLEWIGEIYHSGYTNYNPSLTSRVTILVDSSKNHFSLKLTSVTAADTAVYYCARRFGSFGTYYSDYWGQGTLVTVSS
chain 2: IQLTQSPSSLSASVGDRVTITCRASQGISNYLVWYQQKPGKAPNLLIYAASTLQSGVPSRFSGSGSGTDFTLAISSLQPEDFATYYCQQVDSYPFTFGPGTKVDIK
B5: BD55-870 (protein)
chain 1: EVQLVESGGGLVQPGRSLRLSCAASGFTFDDFAMHWVRQAPGKGLEWVSGITWNGGVIGYGDSVKGRFTISRDNAKNSLFLQMRSLRTDDTAFYYCVKDFRATVTTGWFDPWGQGTLVTVSS
chain 2: QSVLTQPPSASGTPGQRVTISCSGSSSNIGREIVNWYQQLPGTAPKLLIYSNNQRPSGVPDRFSGSKSGTSASLAISGLQSEDEADYYCSAWDDSLSGWVFGGGTKLTVL
B6: BD55-875 (protein)
chain 1: QVQLVESGGGVVQPGRSLRLSCAASGFTFSTFAMHWVRQAPGKGLEWVAVISYDGSYKYYADSVKGRFTISRDNSNNTLYLEMTSLRTEDTAVYYCAKEADFDWLLDTFDYWGQGILVTVSS
chain 2: DIVMTQSPDSLAVSLGERATIRCKSSQSVLHNSNKKNYLAWFQQKPGQPPKLLLYWASTRESGVPDRFSGSGSETDFTLTISSLQAEDVAVYYCQQYYNTPPYTFGQGTKLEIK
B7: BD55-876 (protein)
chain 1: QVHLVQSGAEVKKPGASVKVSCKASGYTFTDHYIHWVRQAPGQGLEWMGWINPNSGGTNYAQKFQGRVTMTRDTSISTAFMELSRLRSDDTAVYYCARHQSSNYFDSSGLDYWGQGNLVTVSS
chain 2: QSALTQPRSVSGSPGQSVTISCTGTSSDVGTYNYVSWYQQHPGKAPKLMIYDVTERPSGVPDRFSGSKSGNTASLTISGLQAEDEADYYCCSYAGSYTVFGGGTKLTVL
B8: P5A-2G9 (protein)
chain 1: QVQLVESGGGVVQPGRSLRLSCAASGFTFSSYGMHWVRQAPGKGLEWVAVIWYDGSNKYYADSVKGRFTISRDNSKNTLYLQMNSLRAEDTAVYYCARWFHTGGYFDYWGQGTLVTVSS
chain 2: QPVLTQPPSSSASPGESARLTCTLPSDINVSSYNIYWYQQKPGSPPRYLLYYYSDSDKGQGSGVPSRFSGSKDASANTGILLISGLQSEDEADYYCMIWPSNALYVFGTGTKVTVL
B9: BD55-925 (protein)
chain 1: EVQLVESGGGLVQPGGSLRLSCAASGFTFHNYWMTWVRQAPGKGLEWVAKIKQDGGETHYVDSVRGRFTISTDNGKNSQYLQMDSLRAEDTAVYYCARGRYDFRSAYHDEVYFDYWGQGTLVTVSS
chain 2: SYELTQPPSVSVSPGQTARITCSADALRNQYTYWYQQRPGQAPVLVMYKDTERPSGIPERFSGSSSGTTVTLTISGVQAEDEADYYCQSADSRGPVFGGGTRLTVL
B10: BD55-93 (protein)
chain 1: EVQLVESGGGLVKPGGSLRLSCVASEFIFSTYSFNWVRQAPGKGLEWVSCISSSSNHIYYADSVKGRFTISRDNAKNSLYLQMNSLRAEDTAVYYCARDFKRRWELFHDYYGMDVWGQGTTVTVSS
chain 2: QSALTQPASVSGSPGQSITISCTGTSSAVDGYNYVSWYQQHPGKAPKLMIYDVSERPSGVSNRFSGSKSGNTASLTISGLQAEDEADYYCSSYTSSNTFVFGGGTKLTVL
B11: BD55-930 (protein)
chain 1: QLQLQESGPGLVKPSETLSLTCTVSGGSISSSTYYWGWIRQPPGKGLEWIGNIYYSGSTYYNPSLKSRVTISVDTSKNQFSLKLRSVTAADTAVYYCARHPAVAGREYFQHWGQGTLVTVSS
chain 2: SYVLTQPPSVSVAPGKTARITCGGNNIGSKSVHWYQQKPGQAPVLVIYYDSDRPSGIPERFSGSNSGNTATLTISRVEAGDEADYFCQVWDGSSDHLYVFGTGTKVTVL
B12: BD55-934 (protein)
chain 1: QVQLVESGGGVVQPGRSLRLSCAASGFTFGRYAFHWVRQGPGKGLEWVAVISYDGVHTYSSDSLKGRVTISRDNSRSTLFLQINSLETEDSALYFCARGPNGDFSHYLWSYGMDVWGQGTTVTVSS
chain 2: SYVLTQPPSVSAAPGQTARITCGGDNIGRKSVHWYQHKPGQAPVLVVYDDGARPSGIPERFSGSNSGNTATLTISGLEAGDEADYYCQVCDTSSDHWIFGGGTKVTVL

Legend:
Assay in all cases: pseudovirus neutralization IC50; higher = weaker neutralization
[1] = molecular target: SARS-CoV-2 Omicron BA.1 spike pseudovirus
Protocol: (§1)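 Single-round VSV luciferase pseudovirus mixed with antibody dilutions for 1 h and put on Huh-7 cells for about a day; IC50 from the dose curve.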

[2] = molecular target: SARS-CoV-2 Omicron BA.2 spike pseudovirus
Protocol: as §1

[3] = molecular target: SARS-CoV-2 Omicron BA.2.75 spike pseudovirus
Protocol: as §1

[4] = molecular target: SARS-CoV-2 Omicron BA.5 spike pseudovirus
Protocol: as §1

[5] = molecular target: SARS-CoV-2 Omicron BQ.1.1 spike pseudovirus
Protocol: as §1

[6] = molecular target: SARS-CoV-2 Omicron XBB spike pseudovirus
Protocol: as §1

[7] = molecular target: SARS-CoV-2 early D614G spike pseudovirus
Protocol: as §1

| Binder | pseudovirus neutralization IC50 [1] [µg/mL] | pseudovirus neutralization IC50 [2] [µg/mL] | pseudovirus neutralization IC50 [3] [µg/mL] | pseudovirus neutralization IC50 [4] [µg/mL] | pseudovirus neutralization IC50 [5] [µg/mL] | pseudovirus neutralization IC50 [6] [µg/mL] | pseudovirus neutralization IC50 [7] [µg/mL] |
| --- | --- | --- | --- | --- | --- | --- | --- |
| B1 | > 10 | > 10 | > 10 | > 10 | > 10 | > 10 | > 10 |
| B2 | > 10 | > 10 | > 10 | > 10 | > 10 | > 10 | > 10 |
| B3 | > 10 | > 10 | > 10 | > 10 | > 10 | > 10 | 0.0086 |
| B4 | > 10 | > 10 | > 10 | > 10 | > 10 | > 10 | > 10 |
| B5 | > 10 | > 10 | > 10 | > 10 | > 10 | > 10 | > 10 |
| B6 | > 10 | > 10 | > 10 | > 10 | > 10 | > 10 | > 10 |
| B7 | > 10 | > 10 | > 10 | > 10 | > 10 | > 10 | > 10 |
| B8 | > 10 | > 10 | > 10 | > 10 | > 10 | > 10 | 0.0259 |
| B9 | > 10 | > 10 | > 10 | > 10 | > 10 | > 10 | > 10 |
| B10 | > 10 | > 10 | > 10 | > 10 | > 10 | > 10 | > 10 |
| B11 | > 10 | > 10 | > 10 | > 10 | > 10 | > 10 | > 10 |
| B12 | > 10 | > 10 | > 10 | > 10 | > 10 | > 10 | > 10 |
